# From PMC3404956, “A Quorum Sensing-Disrupting Brominated Thiophenone with a Promising Therapeutic Potential to Treat Luminescent Vibriosis”
# By UniProt entry, the sequences of proteins in these tests, tags left out. Where a name states a change or a piece, a line headed by the entry shows the natural chain unless it says otherwise.
# UniProt P21308: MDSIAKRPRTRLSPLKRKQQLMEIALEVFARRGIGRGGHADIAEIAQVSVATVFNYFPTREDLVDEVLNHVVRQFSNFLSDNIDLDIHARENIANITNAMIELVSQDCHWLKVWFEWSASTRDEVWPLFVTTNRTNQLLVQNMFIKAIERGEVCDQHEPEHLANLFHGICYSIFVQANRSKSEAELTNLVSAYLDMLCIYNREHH
# The exact form of at least one protein or probe is not confirmed. The comparison behind a weaker result is the experiment's own reference, which may not be listed here.
# Target: GST-LuxR (Vibrio harveyi) (UniProt P21308)
# Test: fluorescence anisotropy
# Conditions: 30°C, annealing in NaCl-Tris-EDTA buffer, ex 480 nm, em 535 nm, recombinant protein, label: 5'-fluorescein on strand 1
sequence,measurement,setting,value
TATTGATAAATTTATCAATAA (double strand) [V. harveyi consensus LuxR binding sequence],binding result,"10 µM thiophenone TF101, Kd value only in Figure 4B",binds more weakly
same,binding result,"10 µM thiophenone TF310, Kd value only in Figure 4B",binds more weakly
